System: serum antibodies to equine infectious anemia virus
Assay: Fluorescence polarization (FP) assay of fluorescein-labeled peptides with diluted horse serum
Type: binding
Description: Several different buffer compositions and detergents were therefore tested for compatibility with horse serum. When horse serum was diluted 1:50 or 1:100 into 20-50 mM sodium phosphate without NaCl, this problem was virtually eliminated. […] Under the low-salt conditions, the polarization of peptide R51-5CF increased from 50 mP to over 200 mP with a 1:100 dilution of a strong positive EIAV antiserum from an experimental infection (Pony 95). Thus it was determined that the optimal buffer composition for the FP assay was 50 mM sodium phosphate, pH 6.8-7.0.
Fluorescence Polarization (FP) Measurements. The fluorescein-labeled peptides were evaluated for their suitability as probes for FP using an FPM-1 Fluorescence Polarization Analyzer (Jolley Consulting and Research, Grayslake, Ill.) batch mode with the following settings: PMT gain 80, heater off, single read. Serum was diluted 1:100 or 1:50 into 2 mL of buffer in 12×75 mm borosilicate glass tubes (VWR). After reading the blank, fluorescently labeled peptide was added to a final concentration of 1-2 nM (100K-200K total intensity) and incubated for at least 15 minutes. The FP of the sample was measured and expressed as millipolarization units (mP). Some of the sera were very dark, presumably due to hemolysis. If such a serum sample had low lamp feedback (<0.63), a two-fold further dilution was tested. Polarization data was output to a computer running the FPM-1 data collection software, then converted to an ASCII text file and imported into the Quattro Pro spreadsheet program (Corel, Ottawa, Ontario) for data analysis and graphing.
Because different fluorescein linkages can result in differences in sensitivity in the FP assay, R51 peptide was labeled with 6-carboxyfluorescein so the difference between the two labels could be ascertained. […] Peptides (approx. 2 nM) were incubated with a 1:100 dilution of serum in 50 mM sodium phosphate, pH 6.8, for 20 minutes. The results are shown in FIG. 2, in order of decreasing peptide length. In FIG. 2, black bars show the results for experimentally-infected (pony 95), hatched bars for field infected ([…]), gray bars for uninfected (Petite), and white bars for no serum added. […] As the R51-6CF probe was the most sensitive to the positive sera tested, 6-carboxyfluorescein is the preferred fluorophore. However, other fluorophores, such as rhodamine, BODIPY™ M, Texas Red™ and Lucifer yellow, could also be used. For a detailed listing of a variety of commercially available fluorophores, see Handbook of Fluorescent Probes and Research Chemicals, ed. Karen Larison, by Richard P. Haughland, Ph.D., 5th ed., 1992, published by Molecular Probes, Inc.

Substance | specificity (110 AGID-negative sera, samples kept in good condition) [%] | overall percent reactivity of serum panel in the FP assay (153 field-infected sera (Texas, Utah, Missouri, Florida), vs AGID) [%] | positive Texas sera that did not react with the probe in the FP assay (even at a 1:50 dilution) | time at which antibody was detected (experimental infection of four ponies, weekly sera, 1:100 and 1:50 dilutions) [weeks post infection] | average sensitivity of the FP assay (two other studies) [%] | specificity of the FP assay (two other studies) [%] | sensitivity with a single envelope-based peptide antigen (summary statement)
R51-6CF: R51 peptide (SEQ ID NO 1) labeled with 6-carboxyfluorescein (IGCIERTHVFCHTG; 6-carboxyfluorescein label; Equine infectious anemia virus) | 100 | 93 | 14 samples out of 123 | 3 | 95 | 100 | –
IGCIERTHVFCHTG (Equine infectious anemia virus) [R51] | – | – | – | – | – | – | approximately 90%

Source: patent publication US20020025512A1, “FLUORESCENCE POLARIZATION- BASED DIAGNOSTIC ASSAY FOR EQUINE INFECTIOUS ANEMIA VIRUS” (priority 1998, published 2002)
